Results deposited as PubChem BioAssay AID624099 (ICCB-Longwood, 2012).
Shown is an unselected part of about 21,000 deposited reagents. Of all reagents, 497 (2.4%) are marked active. 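Higher z means weaker E2 silencing; only reporter increases were scored, and knock-downs that hurt cell survival may mask genuine repressor factors.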 A number with no mark means an inactive call.

Aim: 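Knock-downs relieving repression by E2 of an HPV18 LCR luciferase reporter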 (primary screen)
Cell system: human C33A cervical carcinoma cells (HPV-negative) stably expressing BPV1 E2 and an HPV18 LCR luciferase reporter
Knock-down reagent: siRNA pool against human genes, 40 nM
Time to read-out: 72 h
Read-out: 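Per-well luciferase luminescence, z-scored on each plate against the plate mean and SD with control wells left out, then averaged across three replicate plates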
Direction: mean z-score and z-score: higher = stronger reporter signal, weaker E2 silencing
Call rule: 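Mean z ≥ 2 together with z ≥ 2 in two or more of the three replicates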

{"gene": "MRPL41", "mean z-score": -0.53, "z-score, replicate A": -0.32, "z-score, replicate B": -0.51, "z-score, replicate C": -0.76}
{"gene": "DHRS9", "mean z-score": -1.12, "z-score, replicate A": -1.08, "z-score, replicate B": -1, "z-score, replicate C": -1.29}
{"gene": "LOC388593 (retired record)", "mean z-score": -0.47, "z-score, replicate A": -0.35, "z-score, replicate B": -0.6, "z-score, replicate C": -0.45}
{"gene": "TBC1D13", "mean z-score": -1.12, "z-score, replicate A": -1.23, "z-score, replicate B": -1.1, "z-score, replicate C": -1.03}
{"gene": "OR14J1", "mean z-score": 0.2, "z-score, replicate A": 0.5, "z-score, replicate B": -0.02, "z-score, replicate C": 0.12}
{"gene": "RTP2", "mean z-score": 0.58, "z-score, replicate A": 0.62, "z-score, replicate B": 0.52, "z-score, replicate C": 0.58}
{"gene": "FAM201A", "mean z-score": -0.87, "z-score, replicate A": -0.43, "z-score, replicate B": -1.07, "z-score, replicate C": -1.11}
{"gene": "CMAS", "mean z-score": -1.92, "z-score, replicate A": -2, "z-score, replicate B": -2, "z-score, replicate C": -1.75}
{"gene": "GPR149", "mean z-score": -0.19, "z-score, replicate A": 0.04, "z-score, replicate B": -0.52, "z-score, replicate C": -0.08}
{"gene": "ATG16L2", "mean z-score": 0.49, "z-score, replicate A": 0.04, "z-score, replicate B": 0.32, "z-score, replicate C": 1.12}
{"gene": "LOC391809 (retired record)", "mean z-score": -0.66, "z-score, replicate A": -0.54, "z-score, replicate B": -0.9, "z-score, replicate C": -0.54}
{"gene": "SUCO", "mean z-score": 0.01, "z-score, replicate A": 0.39, "z-score, replicate B": -0.48, "z-score, replicate C": 0.11}
{"gene": "IFT25", "mean z-score": -0.3, "z-score, replicate A": -0.27, "z-score, replicate B": -0.09, "z-score, replicate C": -0.55}
{"gene": "NAA11", "mean z-score": -0.55, "z-score, replicate A": -0.69, "z-score, replicate B": -0.43, "z-score, replicate C": -0.53}
